From patent US20230303666A1, “Cell-free antibody engineering platform and neutralizing antibodies for sars-cov-2” (published 2023) come the findings set out here.

The labels stand for the following.
B1: SR12t9 (VHH)
VHH: QVQLVVSGRGLVQAGDSLRLSCVASGAIVHVFAMGWFRQAPGEEREFVASINLDNDATIYADSVKGRFTISRGDARNTVYLQMNSLKPEDTAVYYCNATIFTDSDLGDYWGRGTQVTVSS
B2: SR12c5 (VHH)
VHH: EVQLVESGGGLVQAGDSLRLSCAASGAIVHVFAMGWFRQAPGKEREFVASINLDNDVTNYADSVKGRFTISRDDARNTVYLQMNSLKPEDTAVYYCNATILTVSGLGDYWGQGTQVTVSS
B3: SR12t6 (VHH)
VHH: QVQLVVSGGGLVQAGDSLRLSCAASGAIVHVFAMGWFRQAPGKEREFVASINLDNDVTNYADSVKGRFTISRDDARNTVYLQMNSLKPEDTAVYYCNATIFTDSGLGDYWGRGTQVTVSS
B4: SR12f3 (VHH)
VHH: QVQLVVSGGGLVQAGDSLRLSCAASGAIVHVFAMGWFRQAPGKEREFVASINLDNDATNYADSVKGRFTISRDDARNTVYLQMNSLKPEDTAVYYCNATIFMDSDLGDYWGRGTQVTVSS
B5: SR2c3 (VHH, not shown: small tags and cut ends)
VHH: EVQLVESGGGLVQAGDSLRLSCAASGAFSSNVFMGWFRQAPGKEREFVASITPHHAVTDYADSVRGRFSISADSAKNTVYLQMNSLKPEDTAVYYCAAAIYRNATVLDYWGQGTQVTVSS
B6: SR2t5 (VHH, not shown: small tags and cut ends)
VHH: QVQLVESGGGLVQAGDSLRLSCAASGAFSSNVFMGWFRQAPGKEREFVASITPHHAVTDYADSVRGRFSISADTAKNTVYLQMNSLKPEDTAVYYCAAAIYRNATVLDYWGQGTQVTVSS
B7: SR2c4 (VHH, not shown: small tags and cut ends)
VHH: EVQLVESGGGLVQAGDSLRLSCAASGAFSSNVFMGWFRQAPGKEREFVASITPHHAVTDYADSVRGRFSISADSAKNTVYLQMNSLKPEDTAVYYCAAAIYCNATVLDYWGQGTQVTVSS
B8: SR2f3 (VHH, not shown: small tags and cut ends)
VHH: QVQLVESGGGLVQAGDSLRLSCAASGAFGSNVFMGWFRLAPGKEREFVASITPHHTVTDYADSVRGRFSISADTAKNTVYLQMNSLKPEDTAVYYCAAAIYRNASVLDYWGQGTQVTVSS
B9: SR2t9 (VHH, not shown: small tags and cut ends)
VHH: QVQLVESGGGLVQAGDSLRLSCAATGAFSSNVFMGWFRLAPGKEREFVASITPHHAVTDYADSVRGRFSISADTAKNTVYLQMNALKPEDTAVYYCAAAIYCNATVLDYWGQGTQVTVSS
B10: SR4 (VHH, not shown: small tags and cut ends)
VHH: EVQLVESGGGLVQAGDSLRLSCAASGFQLSCYCMGWFRQAPGKEREFVASITQHAFRTYYADSVKGRFTISRDDARNTVYLQMNSLKPEDTAVYYCAAAETPNILVYENYWGQGTQVTVSS

Values joined by “and” are separate entries in the source; they are usually repeats but may differ in a detail not shown here. Identical values can stand only once.

One assay has as its target SARS-CoV-2 S deleted of the C-terminal 27 a.a. and fused to the NRVRQGYS sequence of HIV-1 (pCMV-SAR (SARS-CoV-2), P0DTC2). The assay can be described thus: cell-based or functional assay.
Turning to B1, the Pseudovirus neutralization % inhibition, 5 nM VHH, replicate 1 is -1.72%; the Pseudovirus neutralization % inhibition, 5 nM VHH, replicate 2 is -0.52%; the Pseudovirus neutralization % inhibition, 50 nM VHH, replicate 1 is 15.5%; the Pseudovirus neutralization % inhibition, 50 nM VHH, replicate 2 is 9.91%. The Pseudovirus neutralization % inhibition, 500 nM VHH, replicate 1 was 58.2% and the Pseudovirus neutralization % inhibition, 500 nM VHH, replicate 2 came to 46.5%.
With B2, the Pseudovirus neutralization % inhibition, 5 nM VHH, replicate 1 is 8.71%; the Pseudovirus neutralization % inhibition, 5 nM VHH, replicate 2 was found to be 3.62%; the Pseudovirus neutralization % inhibition, 50 nM VHH, replicate 1 amounted to 10.7%; the Pseudovirus neutralization % inhibition, 50 nM VHH, replicate 2 was 3.97%. The Pseudovirus neutralization % inhibition, 500 nM VHH, replicate 1 is 12.9% and the Pseudovirus neutralization % inhibition, 500 nM VHH, replicate 2 amounted to 5.23%.
Consider B3, for which the Pseudovirus neutralization % inhibition, 5 nM VHH, replicate 1 is 7.32%; the Pseudovirus neutralization % inhibition, 5 nM VHH, replicate 2 came out at 0.157%; the Pseudovirus neutralization % inhibition, 50 nM VHH, replicate 1 is 11.4%; the Pseudovirus neutralization % inhibition, 50 nM VHH, replicate 2 is 9.26%. Also, the Pseudovirus neutralization % inhibition, 500 nM VHH, replicate 1 amounted to 44.7% and the Pseudovirus neutralization % inhibition, 500 nM VHH, replicate 2 was 35.3%.
On to B4, for which the Pseudovirus neutralization % inhibition, 5 nM VHH, replicate 1 is 12.7%; the Pseudovirus neutralization % inhibition, 5 nM VHH, replicate 2 was determined as 3.93%; the Pseudovirus neutralization % inhibition, 50 nM VHH, replicate 1 turned out to be 11.6%; the Pseudovirus neutralization % inhibition, 50 nM VHH, replicate 2 was 5.99%. The molecule further had a Pseudovirus neutralization % inhibition, 500 nM VHH, replicate 1 of 14% and a Pseudovirus neutralization % inhibition, 500 nM VHH, replicate 2 of 8.56%.

Another assay concerns the target SARS-CoV-2 S deleted of the 27 a.a. at the C-terminal and fused to the NRVRQGYS sequence of HIV-1, o (SARS-CoV-2), P0DTC2. As to the kind of experiment: cell-based or functional assay.
On to B5, for which the Pseudovirus neutralization % inhibition, VHH 5 nM is 0.636% and 4.85%; the Pseudovirus neutralization % inhibition, VHH 50 nM is 16.3% and 16.4%; the Pseudovirus neutralization % inhibition, VHH 500 nM is 67.8% and 59.4%.
Turning to B6, the Pseudovirus neutralization % inhibition, VHH 5 nM is 2.7% and 13.9%; the Pseudovirus neutralization % inhibition, VHH 50 nM was 14.1% and 18.1%; the Pseudovirus neutralization % inhibition, VHH 500 nM is 61.2% and 52%.
In the case of B7, the Pseudovirus neutralization % inhibition, VHH 5 nM is 14.3% and 2.66%; the Pseudovirus neutralization % inhibition, VHH 50 nM is 12.8% and 11.3%; the Pseudovirus neutralization % inhibition, VHH 500 nM is 49.5% and 38%.
With B8, the Pseudovirus neutralization % inhibition, VHH 5 nM was 2.59% and 0%; the Pseudovirus neutralization % inhibition, VHH 50 nM was 5.01% and 2.67%; the Pseudovirus neutralization % inhibition, VHH 500 nM is 6.02% and -0.622%.
Regarding B9, the Pseudovirus neutralization % inhibition, VHH 5 nM was 12.4% and 12.1%; the Pseudovirus neutralization % inhibition, VHH 50 nM is 13.4% and 9.88%; the Pseudovirus neutralization % inhibition, VHH 500 nM was 23.5% and 20.8%.
With B10, the Pseudovirus neutralization % inhibition, VHH 5 nM is 6.2% and 0.626%; the Pseudovirus neutralization % inhibition, VHH 50 nM was 11% and 8.79%; the Pseudovirus neutralization % inhibition, VHH 500 nM was 32.2% and 20%.
